According to patent US20170253607A1:

Key:
HIV-1 PR = HIV-1 PR (Human immunodeficiency virus type 1 group M subtype B, UniProt P04585); test: HIV-protease inhibitory activity assay (FRET peptide substrate); format: biochemical; conditions: Test Example 1
[1] = Protein binding test (equilibrium dialysis, unbound ratio fu in serum); format: in vitro ADME; conditions: rat serum, equilibrium dialysis 24 hours, 37° C., 2 μg/mL
[2] = Evaluation of total body clearance (CLtot), intravenous administration; format: in vivo, Sprague-Dawley (SD); conditions: rat (SD), intravenous administration 0.5-10 mg/kg; CLtot = dose/AUC

| SMILES | IC50 (HIV-1 PR) | rat_fu [1] | rat_CLt [2] |
| --- | --- | --- | --- |
| COc1ccc(S(=O)(=O)N(CC(C)C)C[C@@H](O)[C@H](Cc2ccc(NCc3ccc4ccccc4c3-c3sc4c(c3C(=O)O)CC(C)(C)CC4)cc2)NC(=O)O[C@H]2CO[C@@]3(C)OCC[C@@H]23)cc1 | 4.22 nM | <0.1% | 0.113 mL/min/kg |
| COc1ccc(S(=O)(=O)N(CC(C)C)C[C@@H](O)[C@H](Cc2ccc(OCc3ccccc3-c3sc4c(c3C(=O)O)CC(C)(C)CC4=O)cc2)NC(=O)O[C@H]2CO[C@@]3(C)OCC[C@@H]23)cc1 | 0.94 nM | <0.1% | 1.48 mL/min/kg |
| COc1ccc(S(=O)(=O)N(CC(C)C)C[C@@H](O)[C@H](Cc2ccc(NCc3cc(C(F)(F)F)ccc3-c3sc4c(c3C(=O)O)CC(C)(C)CC4)cc2)NC(=O)O[C@H]2CO[C@@]3(C)OCC[C@@H]23)cc1 | 2.39 nM | <0.1% | 0.455 mL/min/kg |
| COc1ccc(S(=O)(=O)N(CC(C)C)C[C@@H](O)[C@H](Cc2ccccc2)NC(=O)O[C@H]2CO[C@@]3(CN(Cc4sc5c(c4C(=O)O)CC(C)(C)CC5)C(C)=O)OCC[C@@H]23)cc1 | 1.02 nM | <0.1% | 5.37 mL/min/kg |
| CC(C)CN(C[C@@H](O)[C@H](Cc1ccccc1)NC(=O)O[C@H]1CO[C@@]2(C)OCC[C@@H]12)S(=O)(=O)c1ccc2nc(NCc3ccccc3-c3sc4c(c3C(=O)O)CC(C)(C)CC4)sc2c1 | 3.35 nM | <0.1% | 0.324 mL/min/kg |
| COc1ccc(S(=O)(=O)N(CC(C)C)C[C@@H](O)[C@H](Cc2ccc(OCc3ccccc3-c3sc4ccccc4c3C(=O)O)cc2)NC(=O)O[C@H]2CO[C@@]3(C)OCC[C@@H]23)cc1 | 1.14 nM | <0.1% | 7.74 mL/min/kg |
| COc1ccc(S(=O)(=O)N(CC(C)C)C[C@@H](O)[C@H](Cc2ccc(OCc3cc4c(cc3-c3sc5c(c3C(=O)O)CC(C)(C)CC5)C(C)(C)CCC4(C)C)cc2)NC(=O)O[C@H]2CO[C@@]3(C)OCC[C@@H]23)cc1 | 40.2 nM | <0.1% | 2.02 mL/min/kg |
| COc1ccc(S(=O)(=O)N(CC(C)C)C[C@@H](O)[C@H](Cc2ccccc2)NC(=O)O[C@H]2CO[C@@]3(CNCc4ccccc4-c4sc5c(c4C(=O)O)CC(C)(C)CC5)OCC[C@@H]23)cc1 | 2.11 nM | <0.1% | 3.87 mL/min/kg |
| COc1ccc(S(=O)(=O)N(CC(C)C)C[C@@H](O)[C@H](Cc2ccc(OCc3cc(OC)ccc3-c3sc4c(c3C(=O)O)CC(C)(C)CC4)cc2)NC(=O)O[C@H]2CO[C@@]3(C)OCC[C@@H]23)cc1 | 1.32 nM | <0.1% | 0.362 mL/min/kg |
| COc1ccc(S(=O)(=O)N(CC(C)C)C[C@@H](O)[C@H](Cc2ccc(N(C)Cc3ccccc3-c3sc4c(c3C(=O)O)CC(C)(C)CC4)cc2)NC(=O)O[C@H]2CO[C@@]3(C)OCC[C@@H]23)cc1 | 2.01 nM | <0.1% | 2.28 mL/min/kg |
| COc1ccc(S(=O)(=O)N(CC(C)C)C[C@@H](O)[C@H](Cc2ccc(OCc3cc(F)ccc3-c3sc4c(c3C(=O)O)CC(C)(C)CC4)cc2)NC(=O)O[C@H]2CO[C@@]3(C)OCC[C@@H]23)cc1 | 1.76 nM | <0.1% | 1.09 mL/min/kg |
| COc1ccc(S(=O)(=O)N(CC(C)C)C[C@@H](O)[C@H](Cc2ccc(OCc3ccc4ccccc4c3-c3sc4c(c3C(=O)O)CC(C)(C)CC4)cc2)NC(=O)O[C@H]2CO[C@@]3(C)OCC[C@@H]23)cc1 | 4.12 nM | <0.1% | 0.117 mL/min/kg |
| COc1ccc(S(=O)(=O)N(CC(C)C)C[C@@H](O)[C@H](Cc2ccc(N(C)S(=O)(=O)c3ccccc3-c3sc4c(c3C(=O)O)CC(C)(C)CC4)cc2)NC(=O)O[C@H]2CO[C@@]3(C)OCC[C@@H]23)cc1 | 3.09 nM | <0.1% | 4.97 mL/min/kg |
| COc1ccc(S(=O)(=O)N(CC(C)C)C[C@@H](O)[C@H](Cc2ccc(NC(=O)c3ccccc3-c3sc4c(c3C(=O)O)CC(C)(C)CC4)cc2)NC(=O)O[C@H]2CO[C@@]3(C)OCC[C@@H]23)cc1 | 2.22 nM | <0.1% | 2.47 mL/min/kg |
| COc1ccc(S(=O)(=O)N(CC2CCCC2)C[C@@H](O)[C@H](Cc2ccc(OCc3ccccc3-c3sc4c(c3C(=O)O)CC(C)(C)CC4)cc2)NC(=O)O[C@H]2CO[C@@]3(C)OCC[C@@H]23)cc1 | 2.18 nM | <0.1% | 0.933 mL/min/kg |
| Cc1cc(Oc2ccc(C[C@H](NC(=O)O[C@H]3CO[C@@]4(C)OCC[C@@H]34)[C@H](O)CN(CC(C)C)S(=O)(=O)c3ccc4c(c3)OCO4)cc2)ccc1-c1sc2c(c1C(=O)O)CC(C)(C)CC2 | 3.99 nM | <0.1% | 1.5 mL/min/kg |
| COc1ccc(S(=O)(=O)N(CC(C)C)C[C@@H](O)[C@H](Cc2ccc(OC3CN(c4ccccc4-c4sc5c(c4C(=O)O)CC(C)(C)CC5)C3)cc2)NC(=O)O[C@H]2CO[C@@]3(C)OCC[C@@H]23)cc1 | 4.02 nM | <0.1% | 0.07 mL/min/kg |
| COc1ccc(S(=O)(=O)N(CC(C)C)C[C@@H](O)[C@H](Cc2ccc(NCc3ccccc3-n3nc4c(c3C(=O)O)CC(C)(C)CC4)cc2)NC(=O)O[C@H]2CO[C@@]3(C)OCC[C@@H]23)cc1 | 1.96 nM | <0.1% | 0.585 mL/min/kg |
| CC1(C)CCc2sc(-c3ccccc3COc3ccc(C[C@H](NC(=O)O[C@H]4CO[C@@]5(C)OCC[C@@H]45)[C@H](O)CN(CC4CCCC4)S(=O)(=O)c4ccc5c(c4)CCO5)cc3)c(C(=O)O)c2C1 | 5.59 nM | <0.1% | 1.4 mL/min/kg |
| COc1ccc(S(=O)(=O)N(CC(C)C)C[C@@H](O)[C@H](Cc2ccc(OCc3cc(C(F)(F)F)ccc3-c3sc4c(c3C(=O)O)CC(C)(C)CC4)cc2)NC(=O)O[C@H]2CO[C@@]3(C)OCC[C@@H]23)cc1 | 3.32 nM | <0.1% | 0.285 mL/min/kg |
| COc1ccc(S(=O)(=O)N(CC(C)C)C[C@@H](O)[C@H](Cc2ccc(OCc3cc4ccccc4cc3-c3sc4c(c3C(=O)O)CC(C)(C)CC4)cc2)NC(=O)O[C@H]2CO[C@@]3(C)OCC[C@@H]23)cc1 | 7.46 nM | <0.1% | 0.117 mL/min/kg |
| COc1ccc(S(=O)(=O)N(CC(C)C)C[C@@H](O)[C@H](Cc2ccccc2)NC(=O)O[C@H]2CO[C@@]3(COC(=O)NCc4ccc(-c5sc6c(c5C(=O)O)CC(C)(C)CC6)cc4)OCC[C@@H]23)cc1 | 5.25 nM | <0.1% | 4.34 mL/min/kg |
| COc1ccc(S(=O)(=O)N(CC(C)C)C[C@@H](O)[C@H](Cc2ccc(OC[C@@H]3COCC[C@@H]3c3sc4c(c3C(=O)O)CC(C)(C)CC4)cc2)NC(=O)O[C@H]2CO[C@@]3(C)OCC[C@@H]23)cc1 | 1.98 nM | <0.1% | 0.41 mL/min/kg |
| COc1ccc(S(=O)(=O)N(CC(C)C)C[C@@H](O)[C@H](Cc2ccccc2)NC(=O)O[C@H]2CO[C@@]3(CNCCCc4sc5c(c4C(=O)O)CC(C)(C)CC5)OCC[C@@H]23)cc1 | 1.02 nM | <0.1% | 1.16 mL/min/kg |
